## Share of PSTVd stem 15 variants by leaf site

Reference: Wu et al. 2024, doi:10.1371/journal.ppat.1012142.

Region: stem 15 of PSTVd (intermediate strain), upper and lower strand joined, each 5' to 3', the first 9 letters being the upper strand. Wild type: CUGGAGCGAUCGCUUCGG. Varied positions (N): CUGGAGCGAUNGNNUNNG.

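A pool of all variants was put on leaves of three Nicotiana benthamiana plants. Progeny were sequenced from the inoculated region (day 5), the margin of the inoculated leaf (day 10) and systemic leaves (day 12).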

Numbers give reads per thousand; 0 = not seen among the reads, higher = more abundant. Each site shows the three plants. "Pool" is the share in the plasmid pool used as inoculum, on the same scale. The inoculated region was read from the minus strand, the other sites from the plus strand. IR is the inoculated region, LM the leaf margin, Sys the systemic leaves.

sequence,pool,IR,LM,Sys
CUGGAGCGAUCGGAUCAG,0.727,0.313 / 0.209 / 0.298,0.0620 / 0.0273 / 0.0159,0 / 0 / 0
CUGGAGCGAUCGGAUCCG,0.857,0.176 / 0.230 / 0.298,0.0620 / 0.0545 / 0.0159,0 / 0 / 0
CUGGAGCGAUCGGAUCGG,0.954,0.196 / 0.314 / 0.354,0.0414 / 0.0273 / 0,0 / 0 / 0
CUGGAGCGAUCGGAUCUG,0.792,0.313 / 0.335 / 0.391,0 / 0 / 0,0 / 0 / 0
CUGGAGCGAUCGGAUGAG,0.776,0.215 / 0.335 / 0.298,0.0207 / 0.0273 / 0.0476,0 / 0 / 0
CUGGAGCGAUCGGAUGCG,0.840,0.235 / 0.377 / 0.391,0.103 / 0 / 0,0 / 0 / 0
CUGGAGCGAUCGGAUGGG,0.970,0.313 / 0.356 / 0.298,0.0620 / 0.0273 / 0.0159,0 / 0 / 0
CUGGAGCGAUCGGAUGUG,1.23,0.274 / 0.147 / 0.465,0.0620 / 0.0273 / 0.0159,0 / 0 / 0
CUGGAGCGAUCGGAUUAG,0.824,0.176 / 0.230 / 0.316,0.0620 / 0.0273 / 0,0 / 0 / 0
CUGGAGCGAUCGGAUUCG,0.937,0.196 / 0.272 / 0.298,0.0620 / 0 / 0.0159,0 / 0 / 0
CUGGAGCGAUCGGAUUGG,0.905,0.333 / 0.251 / 0.354,0.0827 / 0.0273 / 0.0159,0 / 0 / 0
CUGGAGCGAUCGGAUUUG,1.08,0.665 / 0.544 / 0.596,0.0414 / 0.0273 / 0.0317,0 / 0 / 0
CUGGAGCGAUCGGCUAAG,0.776,0.274 / 0.188 / 0.409,0.103 / 0.0273 / 0,0 / 0 / 0
CUGGAGCGAUCGGCUACG,1.31,0.411 / 0.544 / 0.465,0.0827 / 0.0273 / 0,0 / 0 / 0.0199
CUGGAGCGAUCGGCUAGG,1.47,1.35 / 1.28 / 1.12,0.0827 / 0.0273 / 0.0159,0 / 0 / 0.0199
CUGGAGCGAUCGGCUAUG,0.808,0.254 / 0.377 / 0.316,0.0620 / 0.0273 / 0,0 / 0 / 0
CUGGAGCGAUCGGCUCAG,0.921,0.196 / 0.314 / 0.186,0.145 / 0 / 0.0634,0 / 0 / 0
CUGGAGCGAUCGGCUCCG,0.760,0.274 / 0.209 / 0.242,0.0414 / 0.0273 / 0.0159,0 / 0 / 0
CUGGAGCGAUCGGCUCGG,1.02,0.352 / 0.147 / 0.261,0.0414 / 0 / 0.0317,0 / 0 / 0
CUGGAGCGAUCGGCUCUG,0.711,0.215 / 0.168 / 0.205,0.0207 / 0.0545 / 0,0 / 0 / 0
CUGGAGCGAUCGGCUGAG,0.792,0.372 / 0.209 / 0.447,0.124 / 0.0273 / 0.0159,0 / 0 / 0
CUGGAGCGAUCGGCUGCG,0.873,0.411 / 0.147 / 0.279,0.0620 / 0.0818 / 0.0159,0 / 0 / 0
CUGGAGCGAUCGGCUGGG,0.921,0.372 / 0.377 / 0.261,0.0414 / 0.0273 / 0.0159,0 / 0 / 0
CUGGAGCGAUCGGCUGUG,0.727,0.294 / 0.251 / 0.372,0.0620 / 0.0273 / 0,0 / 0 / 0
CUGGAGCGAUCGGCUUAG,1.21,1.59 / 1.19 / 1.84,0.620 / 0.572 / 0.904,0.495 / 0.443 / 0
CUGGAGCGAUCGGCUUCG,1.78,1.13 / 2.11 / 30.8,0.0207 / 0 / 0.0476,0 / 0 / 0.0399
CUGGAGCGAUCGGCUUGG,1.00,0.567 / 1.61 / 0.503,0.0620 / 0 / 0,0 / 0 / 0
CUGGAGCGAUCGGCUUUG,0.921,0.176 / 0.209 / 0.279,0.145 / 0.0545 / 0,0 / 0 / 0
CUGGAGCGAUCGGGUAAG,1.24,0.333 / 0.314 / 0.279,0.0620 / 0.0273 / 0.0476,0 / 0 / 0
CUGGAGCGAUCGGGUACG,0.776,0.215 / 0.293 / 0.316,0 / 0 / 0.0317,0 / 0 / 0
CUGGAGCGAUCGGGUAGG,0.824,0.333 / 0.272 / 0.335,0.0414 / 0.0273 / 0,0 / 0 / 0
CUGGAGCGAUCGGGUAUG,0.711,0.176 / 0.314 / 0.391,0.0827 / 0 / 0.0159,0 / 0 / 0
CUGGAGCGAUCGGGUCAG,1.02,0.215 / 0.272 / 0.279,0.0207 / 0.0818 / 0.0159,0 / 0 / 0
CUGGAGCGAUCGGGUCCG,1.81,0.920 / 0.859 / 0.726,0.0620 / 0.0545 / 0,0 / 0 / 0.0199
CUGGAGCGAUCGGGUCGG,2.47,3.48 / 3.27 / 3.70,0.124 / 0.191 / 0.0476,0.218 / 0 / 0.0598
CUGGAGCGAUCGGGUCUG,0.760,0.352 / 0.147 / 0.223,0.103 / 0.0273 / 0.0159,0 / 0 / 0
CUGGAGCGAUCGGGUGAG,1.24,0.274 / 0.377 / 0.223,0.145 / 0.0545 / 0.0159,0 / 0 / 0
CUGGAGCGAUCGGGUGCG,1.18,0.372 / 0.419 / 0.428,0.0827 / 0.0545 / 0.0317,0 / 0 / 0
CUGGAGCGAUCGGGUGGG,1.15,0.254 / 0.168 / 0.391,0.0207 / 0.0273 / 0.0793,0 / 0 / 0
CUGGAGCGAUCGGGUGUG,0.937,0.254 / 0.293 / 0.354,0.0620 / 0.0273 / 0.0159,0 / 0 / 0
CUGGAGCGAUCGGGUUAG,0.905,0.391 / 0.147 / 0.168,0 / 0 / 0.0159,0 / 0 / 0
CUGGAGCGAUCGGGUUCG,0.711,0.176 / 0.251 / 0.205,0.0207 / 0.0273 / 0.0159,0 / 0 / 0
CUGGAGCGAUCGGGUUGG,0.905,0.176 / 0.168 / 0.391,0.0207 / 0 / 0.0317,0 / 0 / 0

Excerpt, the final 2 entries:

CUGGAGCGAUCGGGUUCG (pool 0.711) read IR 0.176 / 0.251 / 0.205; LM 0.0207 / 0.0273 / 0.0159; Sys 0 / 0 / 0.
CUGGAGCGAUCGGGUUGG (pool 0.905) read IR 0.176 / 0.168 / 0.391; LM 0.0207 / 0 / 0.0317; Sys 0 / 0 / 0.

With 36,693-63,082 reads a sample, very low values are single reads. For reference, wild type rose from 10.2 per thousand in the pool to 285, 367, 312 (inoculated region), 785, 865, 782 (leaf margin) and 854, 898, 915 (systemic leaves). The authors trace changes outside the varied positions to PCR and sequencing errors or to mutation in the plant; presence does not show that a variant is infectious alone.